The numbers were not newly measured in patent publication US11466029B2, “Compounds useful to treat influenza virus infections” (Nanjing Zhengxiang Pharmaceuticals Co., Ltd., priority 2019, dated 2022), which cites them from elsewhere.

The conditions of the series: rat, in vivo; cited from earlier work.

Take `O=C1c2c(O)c(=O)ccn2N([C@@H]2c3ccccc3SCc3c2ccc(F)c3F)[C@@H]2COCCN12` [Baloxavir acid, reference compound]: the “oral bioavailability of baloxavir” value is on record as 0.69%.
